PubChem BioAssay AID1259414 – Drosophila RNAi Screening Center, 2018
Aim: 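Genome-wide screen for host control of endosymbiont load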 (primary screen). Cell system: Drosophila JW18 cells infected with Wolbachia. Reagents: long dsRNA against Drosophila genes, 0.25 µg dsRNA per well of a 384-well plate. Time to read-out: 5 days. Treatment: cells persistently infected with Wolbachia before knock-down; no added drug. Read-out: 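Automated imaging of bacterial rRNA staining divided by host cell count, reported as plate-normalised robust z-score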. Reading the numbers: Wolbachia per cell robust z: higher = more Wolbachia per host cell than the plate typical. Active means: 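Hit when robust z is 1.5 or more, or -1.5 or less, in at least two of three replicates; excludes dsRNAs with several or no targets, genes not expressed in JW18 and well A1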.
In all, the deposit lists about 24,000 reagents; this is an unselected part of those with a known target gene and a result. In the full data, about 1,210 (5%) got an active call. 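Inactive calls also include excluded dsRNAs with several or no targets, genes unexpressed in JW18, and well A1, regardless of score.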 Names joined by + are all predicted targets of the reagent. No sequences are given here.

no.	predicted target	amplicon	Wolbachia per cell robust z, rep 1	Wolbachia per cell robust z, rep 2	Wolbachia per cell robust z, rep 3	outcome
1	sxc	DRSC04911	-0.693	0.587	-1.47	inactive
2	CG15880	DRSC00474	-0.299	-0.0408	-7.46	inactive
3	CG40045	DRSC21232	0.863	0.102	1.27	inactive
4	CG33928	DRSC37816	2.07	0.708	1.55	inactive
5	Tctp	DRSC15649	0.43	-5.04	-5.68	inactive
6	Tctp	DRSC29100	0.492	0.51	-0.811	inactive
7	Cyp4d20	DRSC08654	-5.02	-4.6	-3.46	inactive
8	Cyp4d20	DRSC25418	0.632	0.271	0.348	inactive
9	witty	DRSC02378	-1.8	-3.23	-6.95	inactive
10	witty	DRSC21650	0.0217	0.499	-0.00235	inactive
11	witty	DRSC26154	-1.43	-1.34	-0.647	inactive
12	CG33494	DRSC13715	0.0877	-0.327	-1.26	inactive
13	CG7519	DRSC11834	-0.00933	-0.0162	-1.38	inactive
14	CG12320	DRSC14498	0.714	0.468	1.19	inactive
15	alpha-Cat	DRSC11917	-2.01	-0.384	-0.0603	inactive
16	CG30338	DRSC05166	-3.16	-1.54	-11.8	active
17	Girdin	DRSC08292	-7.61	0.445	-0.344	inactive
18	Ziz	DRSC02506	-0.909	-0.0759	0.485	inactive
19	Ziz	DRSC02976	0.117	0.727	-0.0531	inactive
20	CG11670	DRSC14342	-0.34	0.956	0.767	inactive
21	CG11381	DRSC17780	-1.78	1.07	0.122	inactive
22	CG11381	DRSC25125	-1.31	0.426	-1.21	inactive
23	Sfp78E	DRSC40534	-1.48	0.677	-0.196	inactive
24	Tango5	DRSC18023	-4.61	0.387	-0.188	inactive
25	Tango5	DRSC25500	-0.105	-1.51	0.0557	inactive
26	CG16790	DRSC15156	0.167	-0.0109	0.536	inactive
27	Psf1 + Klp61F + CG32318	DRSC23255	-0.879	-1.13	0.8	inactive
28	Smurf	DRSC07641	-1.69	0.506	-0.0815	inactive
29	Smurf	DRSC29832	0.327	0.0203	0.304	inactive
30	CG13501	DRSC04146	0.395	0.622	0.298	inactive
31	Tpc2	DRSC04322	0.213	-0.84	-0.446	inactive
32	CG12880	DRSC14568	-0.281	0.715	-0.79	inactive
33	SLIRP1 + anox	DRSC20542	1.94	0.173	1.35	inactive
34	CG9106	DRSC20154	-4.79	-7.51	0.662	inactive
35	CG9106	DRSC24212	1.03	3.51	1.12	inactive
36	WDR79	DRSC03159	-0.337	0.472	2.07	inactive
37	CG15599	DRSC19668	-1.32	0.609	-4.02	inactive
38	ppk18	DRSC02216	1.42	0.468	0.858	inactive
39	ppk18	DRSC02217	1.08	0.174	-0.0287	inactive
40	CG42566	DRSC03949	0.47	0.587	0.172	inactive
41	zen	DRSC12632	1.09	-0.119	-0.000571	inactive
42	zen	DRSC23673	0.289	-0.608	-1.37	inactive
43	Trm7-32	DRSC15741	-0.662	0.948	-1.55	inactive
44	CG4286	DRSC04459	0.119	-4.07	-0.286	inactive
45	CG4286	DRSC24458	-1.3	0.0929	-1.77	inactive
46	sub	DRSC06125	0.612	0.282	-1.41	inactive
47	Amacr	DRSC03198	-0.0467	-0.874	0.55	inactive
48	ths	DRSC23123	-0.858	-1.97	-1.14	inactive
49	ths	DRSC27271	-0.755	-1.15	-0.552	inactive
50	CG7382	DRSC03052	-0.111	0.691	0.792	inactive
51	CG7382	DRSC27512	-0.943	0.152	-0.49	inactive
52	CG42487 + CG4884	DRSC40595	-2.6	-2.7	-1.71	inactive
53	Sidpn	DRSC02056	-4.7	-2.09	-8.13	inactive
54	ph-d	DRSC23191	-1.36	0.526	0.708	inactive
55	ph-d	DRSC29736	0.835	-0.0575	-0.419	inactive
56	Stat92E	DRSC16870	1.99	2.38	0.604	active
57	Stat92E	DRSC37655	1.26	0.0792	2.16	inactive
58	kibra	DRSC14533	-0.94	0.081	-1.63	inactive
59	kibra	DRSC23283	-2.44	-0.802	-0.585	inactive
60	kibra	DRSC29376	-0.0358	-0.329	0.877	inactive
61	AhcyL2	DRSC14107	-0.368	1.53	1.32	inactive
62	CG13474	DRSC10018	0.713	2.93	1.76	inactive
63	CG6067	DRSC18399	-0.132	-0.0604	-0.0682	inactive
64	Or67c	DRSC11242	-0.152	-5.99	-0.845	inactive
65	Pask	DRSC04337	0.954	0.311	0.459	inactive
66	Pask	DRSC28829	0.882	1.31	-0.907	inactive
67	CG3309	DRSC18301	0.194	0.546	0.489	inactive
68	CG3309	DRSC26197	0.1	0.728	0.521	inactive

As entered above.
Entry for Trm7-32 [DRSC15741] under “Wolbachia per cell robust z, rep 1”: -0.662
witty [DRSC26154], Wolbachia per cell robust z, rep 2 → -1.34
For “Wolbachia per cell robust z, rep 2”, CG6067 [DRSC18399] has -0.0604
Tctp [DRSC29100], Wolbachia per cell robust z, rep 3 = -0.811
Under “Wolbachia per cell robust z, rep 3”, ths [DRSC27271] shows -0.552
For “Wolbachia per cell robust z, rep 2”, CG7519 [DRSC11834] reads -0.0162
